The record followed here is ChEMBL document CHEMBL1139704, “Discovery of potent inhibitors of pseudomonal quorum sensing via pharmacophore modeling and in silico screening” (Bioorg Med Chem Lett, 2006).

Each structure is given as a SMILES string. Active and inactive are the calls of the source. The rule behind the calls is not given here.

Assay [1] has as its system Pseudomonas aeruginosa. Kind of assay: Inhibition of pyoverdin production in Pseudomonas aeruginosa. The assay is classed as functional, organism-based. In outline:
(§1)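 Overnight nutrient broth cultures were pelleted, resuspended, grown to mid-log phase (OD600 0.3–0.5), and diluted to OD600 0.05. Cultures were exposed to compound in water at 50.00, 25.00, 10.00, 5.00, 2.50, 1.00, 0.10, 0.001 or zero final concentration, shaken 18 h at 37 C. Viable cells were counted, and the pellet OD600 was used to normalise pigment per bacterial OD unit.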

The subject of assay [2] is Pseudomonas aeruginosa. Kind of assay: Inhibition of pyocyanin production in Pseudomonas aeruginosa. The assay is classed as functional, organism-based. In outline: as §1

Regarding `CCOP(=O)(Nc1ccccc1Cl)OCC`, the result in assay [1] and in assay [2] was inactive.
